Laboratory results: PubChem BioAssay AID504761 (Drosophila RNAi Screening Center, 2011)
In all, the deposit lists about 22,000 reagents; shown is a random part of those with a known target gene and a result. Over the whole deposit, 116 (0.52%) got an active call. 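Calls depend on retest data that are not deposited; infection was ranked per plate without normalising between plates; the unit of the infection score is not given.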 A number with no mark means an inactive call. Not all columns of the deposit are shown. Not stated in the record: the amount of reagent, the time to read-out.

Purpose: 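Insect host genes that dengue virus relies on to spread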 (primary screen)
Cell system: D.Mel-2 cells from Drosophila
Knock-down reagent: long dsRNA against Drosophila genes
Treatment: infection with dengue virus type 2; dose and infection time not stated
Measurement: 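Cells stained for dengue envelope protein and imaged; percent of infected cells per well on duplicate plates, ranked by infection, with stained nuclei counted for cell number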
Scale: infection score: higher = more virus-infected cells
Active means: 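Low infection ranks in the two replicates (chance level up to 0.065) followed by a retest with a 1.5-fold or larger significant decrease, p below 0.05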
Calls: active = confirmed: knock-down lowers infection; inactive = not picked or not confirmed

How did the screen score Gnpat [SID104196752]?
infection score, replicate 1: 2.23

For CG12486 (retired record) [SID104189680], how do the results read?
infection score, replicate 1: 1.18

What did the screen give for CG12486 (retired record) [SID104208346]?
infection score, replicate 1: 7.82

What is on record for Ns1 [SID104195321]?
infection score, replicate 1: 3.46

What did the screen give for CG8750 [SID104190829]?
infection score, replicate 1: 0.29

How did the screen score CG33263 [SID104189900]?
infection score, replicate 1: 0.37 (active)

What did the screen give for eEFSec [SID104184363]?
infection score, replicate 1: 3.71

How did the screen score CG15747 [SID104199505]?
infection score, replicate 1: 23.1

Which result is listed for CG15747 [SID104207130]?
infection score, replicate 1: 15.6

How did the screen score CG8765 [SID104202400]?
infection score, replicate 1: 1.61

How did the screen score CG8765 [SID104204915]?
infection score, replicate 1: 4.47

How did the screen score CG32982 [SID104182469]?
infection score, replicate 1: 1.42

With CG32982 [SID104183061], how do the results read?
infection score, replicate 1: 7.53

What is on record for CG32982 [SID104201536]?
infection score, replicate 1: 12.2

Called active (from the list above):
CG33263 [SID104189900]: infection score, replicate 1 = 0.37 (active)
